Compound potency records, mixed from different reports. Data source: NIAID ChemDB in PubChem.

Shared fields: whole-cell or culture tests; organism: HIV-1; method: p24 / ELISA; measure: EC50

ECn is the concentration giving n% inhibition of infection, replication or growth.

SMILES,conditions,strain,cells,mutations,result
NCC(NC(=O)c1ccc(-c2ccc3c(c2)OCO3)[nH]1)c1ncc(CO)s1,,BaL,PBMC,,1.9 µM
COC(=O)c1c(C(=O)OC)c2n(c1C)Cc1ccccc1C2,,IIIB,PBL,,>10 µM
CC(C)(CN1CCCCC1)NC(=O)N[C@]12CC[C@@H](C3(C)CC3)[C@@H]1[C@H]1CC[C@@H]3[C@@]4(C)CC=C(c5ccc(C(=O)O)cc5)C(C)(C)[C@@H]4CC[C@@]3(C)[C@]1(C)CC2,,92HT599,MT-2,,≤0.01 µM
CCCCn1c(C)c(C(=O)OC)c(C(=O)OC)c1C,,IIIB,PBL,,>10 µM
CN[C@@H]1[C@H](O[C@@H]2OC[C@@H](O)[C@H](O)[C@H]2O)[C@@H](O)[C@H](O[C@H]2c3cc(C)c(C(=O)N[C@H](C)C(=O)O)c(O)c3-c3c(cc4c(c3O)C(=O)c3cc(OC)cc(O)c3C4=O)[C@@H]2O)O[C@@H]1C,,Clade C ETH2220 (R5-tropic),PBMC,,10 µM
CC1(C)Oc2ccc3ccc(=O)oc3c2[C@@H](OC(=O)C23CCC(C)(C(=O)O2)C3(C)C)[C@@H]1OC(=O)C12CCC(C)(C(=O)O1)C2(C)C,,IIIB,H9,,32 µM
Cc1cn([C@H]2C[C@H](N=[N+]=[N-])[C@@H](CO)O2)c(=O)[nH]c1=O,,NL4-3,MT-4,,0.00145 µM
CC(C)C1=C2[C@H]3CC[C@@H]4[C@@]5(C)CC[C@H](OC(=O)[C@H]6C[C@@H](C(=O)O)C6(C)C)C(C)(C)[C@@H]5CC[C@@]4(C)[C@]3(C)CC[C@@]2([C@@H](O)CNC(=O)[C@H]2CCCNC2)CC1=O,,92HT599,MT-2,,<1 µM
CC1([C@@H]2CC[C@]3(NC(=O)N4CCC(OCCN5CCOCC5)CC4)CC[C@]4(C)[C@H](CC[C@@H]5[C@@]6(C)CC=C(c7ccc(C(=O)O)cc7)C(C)(C)[C@@H]6CC[C@]54C)[C@@H]23)CC1,,92HT599,MT-2,,≤0.01 µM
CCN1CCN(CCNC[C@H](O)[C@@]23CC[C@]4(C)[C@H](CC[C@@H]5[C@@]6(C)CC[C@H](OC(=O)[C@H]7C[C@@H](C(=O)O)C7(C)C)C(C)(C)[C@@H]6CC[C@]54C)C2=C(C(C)C)C(=O)C3)CC1,,92HT599,MT-2,,<1 µM
Cc1nc(C(CN)NC(=O)C(=O)Nc2ccc3c(c2)OCO3)sc1CO,,IIIB,MT-2,,>79 µM
COc1ccc(S(=O)(=O)N(CC(C)C)C[C@@H](O)[C@H](Cc2ccccc2)NC(=O)O[C@H]2CCOC2)cc1,,LAI,CEM,,0.202 µM
CC(C)N1CCN(c2cc(N3CCN(C)C3=O)c3nc(-c4ncc(Cc5ccc(F)cc5)s4)c(O)c(=O)n3c2)CC1,50% human serum,,,,0.0125 µM
C=C(C)[C@@H]1CC[C@]2(NC[C@H]([C@@H](C)O)N3CCS(=O)(=O)CC3)CC[C@]3(C)[C@H](CC[C@@H]4[C@@]5(C)CC[C@H](OC(=O)[C@H]6C[C@@H](C(=O)O)C6(C)C)C(C)(C)[C@@H]5CC[C@]43C)[C@@H]12,,NL4-3,MT-4,V7A,<0.05 µM
CC1=C[C@H]2[C@@]3(O)[C@H](C)[C@@H](OC(=O)/C=C/c4ccccc4)[C@]4(O)[C@H]([C@@H]3C=C(CO)C[C@]2(O)C1=O)C4(C)C,,IIIB,C8166,,19.8 µM
CN(C)CCNC(=O)N[C@]12CC[C@@H](C3(C)CC3)[C@@H]1[C@H]1CC[C@@H]3[C@@]4(C)CC=C(c5ccc(C(=O)O)cc5)C(C)(C)[C@@H]4CC[C@@]3(C)[C@]1(C)CC2,,92HT599,MT-2,,≤0.01 µM
COc1cc2c(OC3OC(C)C(OC4OC(CO)C(O)C(O)C4O)C(O)C3OC(C)=O)c3c(c(-c4ccc5c(c4)OCO5)c2cc1OC)C(=O)OC3,,1617-1,PBMC,,0.185 µM
Cc1cn([C@H]2C[C@H](N=[N+]=[N-])[C@@H](CO)O2)c(=O)[nH]c1=O,,SF162,PBMC,,0.085 µM
CCn1c(C)c(C(=O)N(C)C)c(C(=O)N(C)C)c1Cc1ccccc1,,IIIB,PBL,,>10 µM
CC(C)C1=C2[C@H]3CC[C@@H]4[C@@]5(C)CC[C@H](OC(=O)[C@H]6C[C@@H](C(=O)O)C6(C)C)C(C)(C)[C@@H]5CC[C@@]4(C)[C@]3(C)CC[C@@]2(CCN(CCN(C)C)C(=O)c2cccc(Cl)c2)CC1=O,,92HT599,MT-2,,<1 µM
CCCCCCCCC(=O)O[C@@H]1[C@@H](C)[C@@]2(O)[C@@H](C=C(CO)C[C@@]3(O)C(=O)C(C)=C[C@@H]23)[C@@H]2C(C)(C)[C@]12OC(=O)CCCCCCCC,,IIIB,C8166,,123 µM
CC1(C)Oc2ccc3ccc(=O)oc3c2[C@@H](OC(=O)C23CCC(C)(C(=O)O2)C3(C)C)[C@H]1OC(=O)C12CCC(C)(C(=O)O1)C2(C)C,,IIIB,U-937,,0.0021 µM
COC(=O)c1c(C(=O)OC)c(Cc2ccccc2)n(C)c1C,,IIIB,PBL,,>10 µM
CC(C)C1=C2[C@H]3CC[C@@H]4[C@@]5(C)CC[C@H](OC(=O)[C@H]6C[C@@H](C(=O)O)C6(C)C)C(C)(C)[C@@H]5CC[C@@]4(C)[C@]3(C)CC[C@@]2(CCNCc2ncccn2)CC1=O,,92HT599,MT-2,,<1 µM
CN(C)C(=O)[C@H]1C[C@@H](NC(=O)N[C@]23CC[C@@H](C4(C)CC4)[C@@H]2[C@H]2CC[C@@H]4[C@@]5(C)CC=C(c6ccc(C(=O)O)cc6)C(C)(C)[C@@H]5CC[C@@]4(C)[C@]2(C)CC3)C1(C)C,,92HT599,MT-2,,≤0.01 µM
COc1ccc2[nH]c(=O)c(CN(Cc3cccnc3)S(=O)(=O)c3cccc4nsnc34)cc2c1,,IIIB,OM-10.1,,0.617 µM
CN(C)C(=O)N[C@]12CC[C@@H](C3(C)CC3)[C@@H]1[C@H]1CC[C@@H]3[C@@]4(C)CC=C(c5ccc(C(=O)O)cc5)C(C)(C)[C@@H]4CC[C@@]3(C)[C@]1(C)CC2,,92HT599,MT-2,,≤0.01 µM
CC(C)C1=C2[C@H]3CC[C@@H]4[C@@]5(C)CC[C@H](OC(=O)[C@H]6C[C@@H](C(=O)O)C6(C)C)C(C)(C)[C@@H]5CC[C@@]4(C)[C@]3(C)CC[C@@]2(CC(=O)NCC(C)(C)NC(=O)c2ccc(F)cc2)CC1=O,,92HT599,MT-2,,<1 µM
C/C=C/C(=O)O[C@@H]1[C@@H](C)[C@@]2(O)[C@@H](C=C(CO)C[C@]3(O)C(=O)C(C)=C[C@@H]23)[C@@H]2C(C)(C)[C@]12OC(=O)/C=C/C,,IIIB,C8166,,0.6224 µM
CC(C)C1=C2[C@H]3CC[C@@H]4[C@@]5(C)CC[C@H](OC(=O)[C@H]6C[C@@H](C(=O)O)C6(C)C)C(C)(C)[C@@H]5CC[C@@]4(C)[C@]3(C)CC[C@@]2([C@@H](O)CNCC(C)(C)N)CC1=O,,92HT599,MT-2,,<1 µM
CC(C)c1c(Cc2ccccc2)n(COCc2ccccc2)c(=O)[nH]c1=O,,SF33,TZM-bl,,0.022 µM
COCCOCCOCCO[C@H](C)[C@@H](CN[C@]12CC[C@@H](C3(C)CC3)[C@@H]1[C@H]1CC[C@@H]3[C@@]4(C)CC[C@H](OC(=O)[C@H]5C[C@@H](C(=O)O)C5(C)C)C(C)(C)[C@@H]4CC[C@@]3(C)[C@]1(C)CC2)N1CCS(=O)(=O)CC1,,NL4-3,MT-4,,<0.01 µM
CC1OC(Oc2c(-c3cc(O)c(O)c(O)c3)oc3cc(O)cc(O)c3c2=O)C(O)C(O)C1O,,IIIB,MT-4,,120 µM
CC(C)[C@@H]1CC[C@]2(C(=O)O)CC[C@]3(C)[C@H](CC[C@@H]4[C@@]5(C)CC[C@H](OC(=O)CCC(=O)O)C(C)(C)[C@@H]5CC[C@]43C)[C@@H]12,,IIIB,H9,,1.8 µM
COC(=O)c1cn2c(c1C(=O)OC)Cc1cc3c(cc1C2)OCO3,,IIIB,PBL,,>10 µM
CC/C=C\C/C=C\C/C=C\C/C=C\C/C=C\C/C=C\CCC(=O)O[C@@H]1[C@@H](C)[C@@]2(O)[C@@H](C=C(COC(C)=O)C[C@]3(O)C(=O)C(C)=C[C@@H]23)[C@@H]2C(C)(C)[C@]12O,,IIIB,C8166,,15.66 µM
CC(C)c1c(Cc2ccccc2)n(COCc2ccccc2)c(=O)[nH]c1=O,,SF33,MT-4,,0.016 µM
CCOC(=O)c1cc(-c2ccc(OC)cc2)n(-c2ccccc2)c1C,,IIIB,PBL,,>10 µM
CC(C)C1=C2[C@H]3CC[C@@H]4[C@@]5(C)CC[C@H](OC(=O)[C@H]6C[C@@H](C(=O)O)C6(C)C)C(C)(C)[C@@H]5CC[C@@]4(C)[C@]3(C)CC[C@@]2(CCNCc2ccc(N3CCS(=O)(=O)CC3)cc2)CC1=O,,92HT599,MT-2,,<1 µM
CC1([C@@H]2CC[C@]3(NC[C@H](CO[Si](C)(C)C(C)(C)C)N4CCS(=O)(=O)CC4)CC[C@]4(C)[C@H](CC[C@@H]5[C@@]6(C)CC[C@H](OC(=O)[C@H]7C[C@@H](C(=O)O)C7(C)C)C(C)(C)[C@@H]6CC[C@]54C)[C@@H]23)CC1,,NL4-3,MT-4,V7A,>0.1 µM
CCN1C(=O)NC(=O)C(C(C)C)C1CC1CC(C)CC(C#N)C1=O,,,C8166,K103N,0.253 µM
COc1cc(/C=C/C(=O)O[C@@H]2[C@@H](C)[C@@]3(O)[C@@H](C=C(CO)C[C@]4(O)C(=O)C(C)=C[C@@H]34)[C@@H]3C(C)(C)[C@]23OC(C)=O)ccc1O,,IIIB,C8166,,77.92 µM
C[C@@H](CN[C@]12CC[C@@H](C3(C)CC3)[C@@H]1[C@H]1CC[C@@H]3[C@@]4(C)CC[C@H](OC(=O)[C@H]5C[C@@H](C(=O)O)C5(C)C)C(C)(C)[C@@H]4CC[C@@]3(C)[C@]1(C)CC2)N1CCS(=O)(=O)CC1,,NL4-3,MT-4,V7A,<0.05 µM
C=C(C)[C@@H]1CC[C@]2(NC(=O)N[C@@H]3C[C@H](C(=O)N4CCCCC4)C3(C)C)CC[C@]3(C)[C@H](CC[C@@H]4[C@@]5(C)CC=C(c6ccc(C(=O)O)cc6)C(C)(C)[C@@H]5CC[C@]43C)[C@@H]12,,92HT599,MT-2,,0.01001–0.05 µM
COC(=O)c1c[nH]c(Cc2ccccc2)c1C(=O)OC,,IIIB,PBL,,>10 µM
CC(=O)OCC1=C[C@H]2[C@@H]3C(C)(C)[C@]3(OC(C)=O)[C@H](OC(C)=O)[C@@H](C)[C@]2(O)[C@@H]2C=C(C)C(=O)[C@@]2(O)C1,,IIIB,C8166,,8.955 µM
CC1([C@@H]2CC[C@]3(NCC(C)(C)N4CCS(=O)(=O)CC4)CC[C@]4(C)[C@H](CC[C@@H]5[C@@]6(C)CC[C@H](OC(=O)[C@H]7C[C@@H](C(=O)O)C7(C)C)C(C)(C)[C@@H]6CC[C@]54C)[C@@H]23)CC1,,92HT599,MT-2,,>0.02 µM
CCCCn1c(C)c(C(=O)OC)c(C(=O)OC)c1-c1ccccc1,,IIIB,PBL,,>1 µM
C/C=C(/C)C(=O)O[C@@]12[C@H](O)[C@@H](C)[C@@]3(O)[C@@H](C=C(CO)C[C@]4(O)C(=O)C(C)=C[C@@H]34)[C@@H]1C2(C)C,,IIIB,C8166,,44.5 µM

Repeating the first 6 entries:

NCC(NC(=O)c1ccc(-c2ccc3c(c2)OCO3)[nH]1)c1ncc(CO)s1 ; strain: BaL ; cells: PBMC ; result: 1.9 µM
COC(=O)c1c(C(=O)OC)c2n(c1C)Cc1ccccc1C2 ; strain: IIIB ; cells: PBL ; result: >10 µM
CC(C)(CN1CCCCC1)NC(=O)N[C@]12CC[C@@H](C3(C)CC3)[C@@H]1[C@H]1CC[C@@H]3[C@@]4(C)CC=C(c5ccc(C(=O)O)cc5)C(C)(C)[C@@H]4CC[C@@]3(C)[C@]1(C)CC2 ; strain: 92HT599 ; cells: MT-2 ; result: ≤0.01 µM
CCCCn1c(C)c(C(=O)OC)c(C(=O)OC)c1C ; strain: IIIB ; cells: PBL ; result: >10 µM
CN[C@@H]1[C@H](O[C@@H]2OC[C@@H](O)[C@H](O)[C@H]2O)[C@@H](O)[C@H](O[C@H]2c3cc(C)c(C(=O)N[C@H](C)C(=O)O)c(O)c3-c3c(cc4c(c3O)C(=O)c3cc(OC)cc(O)c3C4=O)[C@@H]2O)O[C@@H]1C ; strain: Clade C ETH2220 (R5-tropic) ; cells: PBMC ; result: 10 µM
CC1(C)Oc2ccc3ccc(=O)oc3c2[C@@H](OC(=O)C23CCC(C)(C(=O)O2)C3(C)C)[C@@H]1OC(=O)C12CCC(C)(C(=O)O1)C2(C)C ; strain: IIIB ; cells: H9 ; result: 32 µM

Blank or dashed fields: not listed here. Lines come from different laboratories, so protocols vary. Two numbers with a dash give a range or band.